Test results as given in article PMC8397897.
For at least one entry, the source does not settle the construct or the ends of the probe. For part of these data: At least one verdict rests on a figure or table, not on a statement of the authors.

Tests used:
[1] = target: DENV capsid protein (DENVC) (Dengue virus 2 strain 16681) (UniProt O09234); assay: fluorescence anisotropy; settings: recombinant protein, residues 1-100, label: 5' Cy5
[2] = target: DENV capsid protein (DENVC) (Dengue virus 2 strain 16681) (UniProt O09234); assay: confocal microscopy recruitment to GUV; settings: ERmix GUVs; printed with U although named ssDNA; chemistry ambiguous; recombinant protein; residues 1-100; label: 5' FITC; single-stranded DNA

AAACTATTATTACTCATTTTCCGCCAGCAGTCAACTTCGATTTAATTCGTAAACAGATCT [Cy5-DNA]
Kd ([1]; single-stranded DNA): 0.1 µM

CAUCAUGCAGGACAGUCGGAUCGCAGUCAG [Cy5-RNA]
Kd [1]: 0.1 µM

GGACAGGAAUUAAUAGUAGCUGUCC [FITC-ssDNASel25]
binding result [2]: binds
